The subject of this experiment is Escherichia coli O157:H7 Shiga toxin.

By IC50 is commonly meant the concentration that inhibits the measured activity by half. A low value points to greater potency in that assay.

As to `C[C@H](NC(=O)[C@H](CCCNC(=N)N)NC(=O)CCCCCCCN)C(=O)N[C@@H](CCCNC(=N)N)C(=O)N[C@@H](CCCNC(=N)N)C(=O)N[C@@H](CCCNC(=N)N)C(=O)N[C@@H](CCCCN)C(=O)N[C@@H](CCCCN)C(=O)N[C@@H](CCCNC(=N)N)C(=O)N[C@H](C(N)=O)[C@@H](C)O` [Aoc-RxxT], the IC50 is above 1000 µM.

Values taken from patent publication US20150141324A1 (priority 2011, published 2015).
